Measured values reported in paper PMC11084498.
The exact form of at least one protein or probe is not confirmed.

Experiments:
OsCAMTA3CG-1-GST [1] = test: competition EMSA; settings: unlabeled competitor at 1-, 10- or 100-fold reduced binding of Cy5 probe, EMSA: 100 mM Tris-HCl pH 7.5, 100 mM KCl, 50 mM MgCl2, 1 mM DTT, 0.05 mg/mL poly(dI-dC), 20 uL, 4 C, 30 min, 3.5% polyacrylamide, 0.5x TBE, recombinant protein, protein details: GST (pGEX4T-1)
OsCAMTA3CG-1-GST [2] = test: EMSA; settings: 50 mM MgCl2, poly(dI-dC), EMSA: 100 mM Tris-HCl pH 7.5, 100 mM KCl, 50 mM MgCl2, 1 mM DTT, 0.05 mg/mL poly(dI-dC), 20 uL, 4 C, 30 min, 3.5% polyacrylamide, 0.5x TBE, recombinant protein, protein details: GST (pGEX4T-1), label: Cy5 end label (on F strand)

Sequence: TCCACTGGGGACGTACGAGCTCCGCGCATCCCTTCCATTCCATTACTGAC (double strand) [OsALDH2B1 unlabeled competitor]
- binding result (OsCAMTA3CG-1-GST [1]): binds

Sequence: TCCACTGGGGACGTACGAGCTCCGCGCATCCCTTCCATTCCATTACTGAC (double strand) [Cy5-OsALDH2B1 probe]
- binding result (OsCAMTA3CG-1-GST [2]): binds
